In patent US7358249B2, “Heterocyclic compounds having inhibitory activity against HIV integrase” (Shionogi & Co., Ltd., priority 2002, dated 2008):

Molecular target: HIV integrase (Human immunodeficiency virus type 1 group M subtype B, UniProt P04585)
Assay: integrase inhibition assay (microtiter plate, substrate DNA / target DNA)
Assay type: biochemical
Conditions: integrase 30 pmol, incubated at 30° C. for 1 hour, OD at 405 nm; concentration at percent inhibition 50%
Procedure: The inhibitory activities against integrase of the presnt compounds were determined by the assay described below.
(1) Preparation of DNA Solutions
Substrate DNA and target DNA synthesized by Amersham Pharmacia Biotech, which sequences were indicated below, were dissolved in KTE buffer (composition: 100 mM KCl, 1 mM EDTA, 10 mM Tris-HCl (pH 7.6)) at a concentration of 2 pmol/μl and 5 pmol/μl, respectively. The DNA solutions were heated and then slowly cooled so that they were annealed with each complement.
(Sequence of Substrate DNA)
(2) Calculations of the percent inhibitions (IC50 values of test compounds)
Streptavidin, obtained from Vector Laboratories, was dissolved in 0.1 M carbonate buffer (composition: 90 mM Na2CO3, 10 mM NaHCO3) at a concentration of 40 μg/ml. After coating each well of microtiter plates (obtained from NUNC) with 50 μl of the above solution at 4° C. over night, each well was washed twice with PBS (composition: […], 0.27 mM KCl, 0.43 mM Na2HPO4, 0.14 mM KH2PO4) and blocked with 300 μl of 1% skim milk in PBS for 30 min. Additionally, each well was washed twice with PBS and added with 50 μl of the substrate DNA solution (2 pmol/μl). […]
The microtiter plates were incubated at 30° C. for 1 hour. […] The optical density (OD) at 405 nm of each well was measured and the percent inhibition was determined by the following expression. […]

Compound | MIA, IC50
O=C(O)c1ccc2cc(Cc3ccc(F)cc3)cnc2c1O | 0.12 µg/mL
COC(=O)c1ccc2cc(Cc3ccc(F)cc3)cnc2c1O | 0.11 µg/mL
